A mixed list of measured activities; the numbers were collected in NIAID ChemDB.

Shared fields: growth or infection tests; agent: Candida albicans

MIC50, MIC90 and the like: level of inhibition, or share of isolates inhibited.

SMILES | method | measure | strain or isolate | value
CN1C(c2ccc(Cl)cc2)CC2(CC1c1ccc(Cl)cc1)NNC(=S)N2 |  | MIC |  | 25 µg/mL
OCCc1cn(CC(Oc2ccc(OC(F)(F)F)cc2)c2ccc(Cl)cc2Cl)nn1 | broth dilution | MIC | ATCC90027 | >64 µg/mL
NC(=O)c1cc[n+](CCC[n+]2cccc(/C=N/O)c2)cc1.[Br-].[Br-] | broth dilution | EC50 |  | >20 µg/mL
CCOC(=O)c1nc(NC(=O)c2nc(NC(=O)c3cc([N+](=O)[O-])cn3C)cn2C)cn1C | broth dilution | MIC80 | 102 (drug resistant) | >200 µg/mL
CCCCCCCCCCCCCCCC(=O)NC(CCCN)C(=O)NC(CCCN)C(=O)NC(CCCN)C(=O)NC(CCCN)C(=O)NC(CCCN)C(N)=O | broth dilution | MIC | ATCC 24433 | 6.25 µg/mL
COc1ccc(C(Cc2c(Cl)cccc2Cl)n2ccnc2)cc1 |  | MIC50 | 34 strains | 32 µg/mL
Nc1[nH]c(=O)nc2oc3ccc(Cl)cc3c(=O)c12 | broth dilution | MIC100 | MTCC 227 | 250 µg/mL
O=C(CSC(=S)N1CCCCC1)N1N=C(c2cccs2)CC1c1ccc(Cl)cc1 |  | MIC | Clinical isolates | 250 µg/mL
COc1ccc(C(Cc2ccccc2-n2cccc2)n2ccnc2)cc1 |  | MIC90 | 34 strains | 64 µg/mL
CCN1C2=NC[C@@H](CC3CCCCC3)N2C[C@@H]1Cc1ccccc1 |  | MIC | ATCC 10231 | >64 µg/mL
Nc1[nH]c(=O)nc2oc3ccc([N+](=O)[O-])cc3c(=O)c12 | broth dilution | MIC100 | MTCC 227 | 500 µg/mL
CC(C)(C)C1CCC(CN2C3=NC[C@H](CC4CCCCC4)N3C[C@H]2CC2CCCCC2)CC1 |  | MIC | ATCC 10231 | 5–8 µg/mL
O=C(N[C@H](Cc1cn(Cc2cccc([N+](=O)[O-])c2)nn1)C(=O)OCc1cn(Cc2cccc([N+](=O)[O-])c2)nn1)OCc1ccccc1 |  | MIC | MTCC 183 | 8.9 µM
CC(C)(C)c1cn(CC(Oc2ccc(Cl)cc2)c2ccc(Cl)cc2Cl)nn1 | broth dilution | MIC | ATCC90027 | >256 µg/mL
Cc1cc(O)c2c(c1)C(=O)c1cc(O)c(O)c(O)c1C2=O | visual reading | MIC100 |  | 9–18 µM
Cc1ccccc1Cn1cc(COC(=O)[C@@H](Cc2cn(Cc3ccccc3C)nn2)NC(=O)OCc2ccccc2)nn1 |  | MIC | MTCC 183 | 9.8 µM
CCCCCCCCCC(=O)NC(CCCN)C(=O)NC(CCCN)C(=O)NC(CCCN)C(N)=O | broth dilution | MIC | ATCC 24433 | 100 µg/mL
Cc1ccc(SC[C@@H]2C[C@](c3ccc(F)cc3)(n3ccnc3)N(C)O2)cc1 |  | MIC | ATCC10259 | 7 µg/mL
CCCCCCCCCCCC(=O)NC(CCCN)C(N)=O | broth dilution | MIC | ATCC 24433 | >100 µg/mL
COc1ccc(SC[C@@H]2C[C@](c3cccc(OC)c3)(n3ccnc3)N(C)O2)cc1 |  | MIC | ATCC10259 | 7 µg/mL
CN(C)c1ccc(C2CC(c3cccs3)=NN2C(=O)CSC(=S)N2CCCC2)cc1 |  | MIC | Clinical isolates | 125 µg/mL
CC(O)Cn1sc2ccccc2c1=O |  | MIC |  | 20 µg/mL
O/N=C/c1cccc[n+]1Cc1ccc(C[n+]2ccccc2/C=N/O)s1.[Cl-].[Cl-] | broth dilution | EC50 |  | >20 µg/mL
Nc1[nH]c(=O)nc2oc3c(Br)cc(Br)cc3c(=O)c12 | broth dilution | MIC100 | MTCC 227 | 500 µg/mL
CC(CO)n1sc2ccccc2c1=O |  | MIC |  | 10 µg/mL
CS[C@@]1(Cc2ccccc2)NC(=O)[C@@](Cc2ccccc2)(SC)NC1=O |  | MIC |  | 50 µg/mL
O=C(CSC(=S)N1CCCC1)N1N=C(c2cccs2)CC1c1ccc(O)cc1 |  | MIC | Clinical isolates | 125 µg/mL
CCCCCCCCCCCCCCCCCC(=O)NC(CCCN)C(=O)NC(CCCN)C(=O)NC(CCCN)C(=O)NC(CCCN)C(=O)NC(CCCN)C(N)=O | broth dilution | MIC | ATCC 24433 | 3.1 µg/mL
CC(C)(CO)N=c1ssc2ccccc12 |  | MIC |  | 20 µg/mL
O=C(CSC(=S)N1CCCC1)N1N=C(c2cccs2)CC1c1ccc(Cl)cc1 |  | MIC | Clinical isolates | 250 µg/mL
CC1C(c2ccc(Cl)cc2)N(C)C(c2ccc(Cl)cc2)CC12NNC(=S)N2 |  | MIC |  | 50 µg/mL
CCCCCCCC(=O)NC(CCCN)C(=O)NC(CCCN)C(=O)NC(CCCN)C(=O)NC(CCCN)C(=O)NC(CCCN)C(N)=O | broth dilution | MIC | ATCC 24433 | >100 µg/mL
CCN1CCC(O)(/C=C/c2ccc(Cl)cc2)C(C(=O)/C=C/c2ccc(Cl)cc2)C1 |  | Mean MIC | 10 strains | 11.25 µM
O=C(CSC(=S)N1CCCCC1)N1N=C(c2cccs2)CC1c1ccc(F)cc1 |  | MIC | Clinical isolates | 500 µg/mL
Cc1ccc2c(=O)c3c(N)[nH]c(=O)nc3oc2c1 | broth dilution | MIC100 | MTCC 227 | 250 µg/mL
CCCCCCCCCCCCCCCCCC(=O)NC(CCCN)C(=O)NC(CCCN)C(N)=O | broth dilution | MIC | ATCC 24433 | 12.5 µg/mL
O/N=C/c1cc[n+](Cc2cc(C[n+]3ccc(/C=N/O)cc3)on2)cc1.[Br-].[Br-] | broth dilution | EC50 |  | >20 µg/mL
Cc1ccc(SC[C@@H]2C[C@](c3ccc(Cl)cc3)(n3ccnc3)N(C)O2)cc1 |  | MIC | ATCC10259 | 20 µg/mL
CC(C)(C)C1CCC(CN2C3=NC[C@@H](CC4CCCCC4)N3C[C@H]2C2CCCCC2)CC1 |  | EC50 | ATCC 10231 | 8.7 µg/mL
C=CCc1ccc(O)c(OC)c1 | turbidity | MIC90 | 2427 | 500 µg/mL
CC(C)(C)COC(=O)N[C@H](Cc1cn(Cc2ccccc2)nn1)C(=O)OCc1cn(Cc2ccccc2)nn1 |  | MIC | MTCC 183 | 21.2 µM
Nc1[nH]c(=S)nc2oc3ccc(Cl)cc3c(=O)c12 | broth dilution | MIC100 | MTCC 227 | 250 µg/mL
CC(C)(C)C1CCC(CN2C3=NC[C@@H](CC4CCCCC4)N3C[C@@H]2CC2CCCCC2)CC1 |  | MIC | ATCC 10231 | 3–4 µg/mL
O=C(N[C@H](Cc1cn(Cc2ccc([N+](=O)[O-])cc2)nn1)C(=O)OCc1cn(Cc2ccc([N+](=O)[O-])cc2)nn1)OCc1ccccc1 |  | MIC | MTCC 183 | 8.9 µM
Cc1ccc(C2CC3(NNC(=S)N3)C(C)C(c3ccc(C)cc3)N2C)cc1 |  | MIC |  | 200 µg/mL
C1CCC(C[C@H]2CN3C(=NC[C@H]3C3CCCCC3)N2CCC23CC4CC(CC(C4)C2)C3)CC1 |  | MIC | ATCC 10231 | 3–4 µg/mL
CCCCCOc1ccc(-c2ccc(-c3ccc(C(=O)N[C@H]4C[C@@H](O)[C@@H](O)NC(=O)[C@@H]5[C@@H](O)[C@@H](C)CN5C(=O)[C@H]([C@H](C)O)NC(=O)[C@H]([C@H](O)[C@@H](O)c5ccc(O)cc5)NC(=O)[C@@H]5C[C@@H](O)CN5C(=O)[C@H]([C@H](C)O)NC4=O)cc3)cc2)cc1 |  | MIC50 | 15 strains | 0.25 µg/mL
COc1ccc(C2CC3(CC(c4ccc(OC)cc4)N2C)NNC(=S)N3)cc1 |  | MIC |  | 25 µg/mL
COc1ccc(C(Cc2cccc(-n3cccc3)c2)n2ccnc2)cc1 |  | MIC50 | 34 strains | 64 µg/mL
CC1CC1/C=C/C1CC1C1CC1C1CC1C1CC1/C=C/C=C/C(=O)NC[C@H]1O[C@@H](N2CCC(=O)NC2=O)[C@H](O)[C@@H]1O |  | MIC |  | 100 µg/mL
CN(C)c1ccc(C2CC(c3cccs3)=NN2C(=O)CSC(=S)N2CCCCC2)cc1 |  | MIC | Clinical isolates | 125 µg/mL
O=c1c2ccccc2sn1CCO |  | MIC |  | 10 µg/mL
COc1ccc(C(Cc2cccc(Cl)c2)n2ccnc2)cc1 |  | MIC50 | 34 strains | 64 µg/mL
CC(C)(C)COC(=O)N[C@H](Cc1cn(Cc2ccc([N+](=O)[O-])cc2)nn1)C(=O)OCc1cn(Cc2ccc([N+](=O)[O-])cc2)nn1 |  | MIC | MTCC 183 | 18.4 µM
COc1ccc(C(Cc2ccc(N)cc2)n2ccnc2)cc1 |  | Geometric mean MIC | 34 strains | 2.98 µg/mL
Nc1nc(N)c2c(=O)c3ccccc3oc2n1 | broth dilution | MIC100 | MTCC 227 | 500 µg/mL
CN1C(=O)[C@]2(CO)NC(=O)[C@@]1(Cc1ccccc1)SS[C@@]1(CO)NC(=O)[C@](Cc3ccccc3)(NC1=O)SS2 |  | MIC |  | 50 µg/mL
CCN1CCC(O)(/C=C/c2ccc(OC)cc2)C(C(=O)/C=C/c2ccc(OC)cc2)C1 |  | Mean MIC | 10 strains | 100 µM
O/N=C/c1cccc[n+]1Cc1csc2ccccc12.[Cl-] | broth dilution | EC50 |  | >20 µg/mL
COc1ccc([C@@H](Cc2ccc(Cl)cc2Cl)n2ccnc2)cc1 |  | Geometric mean MIC | 34 strains | 5.66 µg/mL
O=C(CSC(=S)N1CCCCC1)N1N=C(c2cccs2)CC1c1ccc(O)cc1 |  | MIC | Clinical isolates | 250 µg/mL
C1CCC(C[C@H]2CN3C(=NC[C@@H]3C3CCCCC3)N2CCC23CC4CC(CC(C4)C2)C3)CC1 |  | EC50 | ATCC 10231 | 38.8 µg/mL
COc1ccc(C(Cc2ccc(F)cc2)n2ccnc2)cc1 |  | Geometric mean MIC | 34 strains | 66.66 µg/mL
C[C@@H](c1ncncc1F)[C@](O)(Cn1cncn1)c1ccc(F)cc1F |  | MIC | Isolate 1490 | 0.03 µg/mL
OCCN=c1ssc2ccccc12 |  | MIC |  | 5 µg/mL

The first 9 rows once more:

SMILES	method	measure	strain or isolate	value
CN1C(c2ccc(Cl)cc2)CC2(CC1c1ccc(Cl)cc1)NNC(=S)N2		MIC		25 µg/mL
OCCc1cn(CC(Oc2ccc(OC(F)(F)F)cc2)c2ccc(Cl)cc2Cl)nn1	broth dilution	MIC	ATCC90027	>64 µg/mL
NC(=O)c1cc[n+](CCC[n+]2cccc(/C=N/O)c2)cc1.[Br-].[Br-]	broth dilution	EC50		>20 µg/mL
CCOC(=O)c1nc(NC(=O)c2nc(NC(=O)c3cc([N+](=O)[O-])cn3C)cn2C)cn1C	broth dilution	MIC80	102 (drug resistant)	>200 µg/mL
CCCCCCCCCCCCCCCC(=O)NC(CCCN)C(=O)NC(CCCN)C(=O)NC(CCCN)C(=O)NC(CCCN)C(=O)NC(CCCN)C(N)=O	broth dilution	MIC	ATCC 24433	6.25 µg/mL
COc1ccc(C(Cc2c(Cl)cccc2Cl)n2ccnc2)cc1		MIC50	34 strains	32 µg/mL
Nc1[nH]c(=O)nc2oc3ccc(Cl)cc3c(=O)c12	broth dilution	MIC100	MTCC 227	250 µg/mL
O=C(CSC(=S)N1CCCCC1)N1N=C(c2cccs2)CC1c1ccc(Cl)cc1		MIC	Clinical isolates	250 µg/mL
COc1ccc(C(Cc2ccccc2-n2cccc2)n2ccnc2)cc1		MIC90	34 strains	64 µg/mL

Conditions beyond the fields shown may differ between rows. a–b is a range or a potency band. An empty or dashed field is not shown. ECn is the concentration giving n% inhibition of infection, replication or growth.